Results on seven molecules are retold here after US20160264649A1 (published 2016).

Broadly, the IC50 is the point on the concentration scale where inhibition reaches its midpoint. A low value points to higher potency.

What all share (assay): cell-based or functional assay
Test [1] has as its target HIV-1 Env of isolate MG RM-C-019 (HIV-1).
Test [2] has as its target HIV-1 Env of isolate MG RM-C-015 (HIV-1).
Test [3] concerns the target HIV-1 Env of isolate MG RM-C-012 (HIV-1).
The target of test [4] is HIV-1 Env of isolate MG RM-C-014 (HIV-1).
In test [5] the target is HIV-1 Env of isolate MG RM-C-004 (HIV-1).
In test [6] the target is HIV-1 Env of isolate MG RM-C-008 (HIV-1).
The target of test [7] is HIV-1 Env of isolate MG RM-C-001 (HIV-1).
Test [8] deals with HIV-1 Env of isolate MG RM-C-009 (HIV-1).
The target of test [9] is HIV-1 Env of isolate MG RM-C-002 (HIV-1).
The target in test [10] is HIV-1 Env of isolate MG RM-C-017 (HIV-1).
Test [11] concerns the target HIV-1 Env of isolate MG RM-C-006 (HIV-1).
Test [12] deals with HIV-1 Env of isolate MG RM-C-010 (HIV-1).
The target of test [13] is HIV-1 Env of isolate MG RM-C-013 (HIV-1).
In test [14] the target is HIV-1 Env of isolate MG RM-C-007 (HIV-1).
The target of test [15] is HIV-1 Env of isolate MG RM-C-005 (HIV-1).
Test [16] addresses HIV-1 Env of isolate MG RM-C-014 (subtype C) (HIV-1).
Test [17] concerns the target HIV-1 Env of isolate MG RM-C-010 (subtype C) (HIV-1).
Test [18] addresses HIV-1 Env of isolate MG RM-C-001 (subtype C) (HIV-1).
For test [19], the target named is HIV-1 Env of isolate MG RM-C-007 (subtype C) (HIV-1).
Test [20] deals with HIV-1 Env of isolate MG RM-C-002 (subtype C) (HIV-1).
The target in test [21] is HIV-1 Env of isolate MG RM-C-015 (subtype C) (HIV-1).
Test [22] addresses HIV-1 Env of isolate MG RM-C-008 (subtype C) (HIV-1).
Test [23] concerns the target HIV-1 Env of isolate MG RM-C-005 (subtype C) (HIV-1).
Test [24] deals with HIV-1 Env of isolate MG RM-C-013 (subtype C) (HIV-1).
The target in test [25] is HIV-1 Env of isolate MG RM-C-009 (subtype C) (HIV-1).
Test [26] deals with HIV-1 Env of isolate MG RM-C-006 (subtype C) (HIV-1).
Test [27] deals with HIV-1 Env of isolate MG RM-C-004 (subtype C) (HIV-1).
For test [28], the target named is HIV-1 Env of isolate MG RM-C-012 (subtype C) (HIV-1).
Test [29] deals with HIV-1 Env of isolate MG RM-C-017 (subtype C) (HIV-1).

A value given as a limit tells only on which side of the number the result lay.

B1: PGT-121 monoclonal antibody (4838_L06; 4873_E03) (antibody, V domains shown)
VH: QMQLQESGPGLVKPSETLSLTCSVSGASISDSYWSWIRRSPGKGLEWIGYVHKSGDTNYSPSLKSRVNLSLDTSKNQVSLSLVAATAADSGKYYCARTLHGRRIYGIVAFNEWFTYFYMDVWGNGTQVTVSS
VL: SDISVAPGETARISCGEKSLGSRAVQWYQHRAGQAPSLIIYNNQDRPSGIPERFSGSPDSPFGTTATLTITSVEAGDEADYYCHIWDSRVPTKWVFGGGTTLTVL
For B1, the “neutralization IC50” value is greater than 50 µg/mL in test [1]; 25.1 µg/mL in [2]; 0.123 µg/mL in test [3]; 26.9 µg/mL in test [4]; 0.011 µg/mL in test [5]; 0.012 µg/mL in test [6]. The “neutralization IC50” value in test [7] is 17.5 µg/mL; in [8], greater than 50 µg/mL; in [9], 0.019 µg/mL; in test [10], 0.009 µg/mL; in [11] it was 0.017 µg/mL; in test [12], greater than 50 µg/mL. In addition, the “neutralization IC50” value in test [13] worked out at 7.23 µg/mL; in test [14], 0.196 µg/mL; in test [15], 0.015 µg/mL.

B2: PGT-123 monoclonal antibody (4858_P08) (antibody, V domains shown)
VH: QLHLQESGPGLVKPPETLSLTCSVSGASINDAYWSWIRQSPGKRPEWVGYVHHSGDTNYNPSLKRRVTFSLDTAKNEVSLKLVDLTAADSATYFCARALHGKRIYGIVALGELFTYFYMDVWGKGTAVTVSS
VL: SSMSVSPGETAKISCGKESIGSRAVQWYQQKPGQPPSLIIYNNQDRPAGVPERFSASPDFRPGTTATLTITNVDAEDEADYYCHIYDARGGTNWVFDRGTTLTVL
Turning to B2, the “neutralization IC50” value was greater than 50 µg/mL in [1]; 13.1 µg/mL in test [2]; 0.606 µg/mL in test [3]; 1 µg/mL in test [4]; 0.009 µg/mL in test [5]; 0.011 µg/mL in test [6]. Moreover, the “neutralization IC50” value was 42.4 µg/mL in test [7]; greater than 50 µg/mL in test [8]; 0.01 µg/mL in test [9]; 0.01 µg/mL in test [10]; 0.021 µg/mL in test [11]; greater than 50 µg/mL in test [12]. Besides, the entries for the “neutralization IC50” value in test [13], in test [14] and in [15] were 14.9 µg/mL, 0.547 µg/mL and 0.012 µg/mL, respectively.

B3: 4993_K13 (PGT-141) (antibody, V domains shown)
VH: QVQLVQSGPEVKKPGSSVKVSCKASGNTFSKYDVHWVRQATGQGLEWVGWMSHEGDKTESAQRFKGRVTFTRDTSASTAYMELRGLTSDDTAIYYCTRGSKHRLRDYVLYDDYGLINYQEWNDYLEFLDVWGHGTAVTVSS
VL: DTVVTQSPLSLPVTPGEAASMSCSSTQSLRHSNGANYLAWYQHKPGQSPRLLIRLGSQRASGVPDRFSGSGSGTHFTLKISRVEAEDAAIYYCMQGLNRPWTFGKGTKLEIK
Consider B3, for which the 50% inhibitory concentration (IC50) in test [16] is 11.8 µg/mL; in test [17], 0.411 µg/mL; in test [18], greater than 50 µg/mL; in test [19], greater than 50 µg/mL; in [20] it was 7.83 µg/mL; in [21], 0.033 µg/mL. Also, the “IC50” value in [22] was greater than 50 µg/mL; in test [23] it was 8.83 µg/mL; in test [24], greater than 50 µg/mL; in test [25] it was 0.143 µg/mL; in [26], 0.33 µg/mL; in test [27], greater than 50 µg/mL. Further, the “IC50” value in [28] was greater than 50 µg/mL; in test [29], 4.02 µg/mL.

B4: 4995_E20 (PGT-142) (antibody, V domains shown)
VH: QVQLVQSGPEVKKPGSSVKVSCKASGNTFSKYDVHWVRQATGQGLEWVGWISHERDKTESAQRFKGRVTFTRDTSATTAYMELRGLTSDDTAIYYCTRGSKHRLRDYVLYDDYGLINYQEWNDYLEFLDVWGHGTAVTVSS
VL: DTVVTQSPLSLPVTPGEAASMSCSSTQSLRHSNGANYLAWYQHKPGQSPRLLIRLGSQRASGVPDRFSGSGSGTHFTLKISRVEAEDAAIYYCMQGLNRPWTFGKGTKLEIK
For B4, the 50% inhibitory concentration (IC50) is 6.02 µg/mL in [16]; 0.07 µg/mL in [17]; greater than 50 µg/mL in test [18]; greater than 50 µg/mL in test [19]; 10.5 µg/mL in [20]; 0.038 µg/mL in [21]. Further, the “IC50” value is greater than 50 µg/mL in test [22]; 1.85 µg/mL in test [23]; greater than 50 µg/mL in test [24]; 0.061 µg/mL in test [25]; 0.478 µg/mL in test [26]; greater than 50 µg/mL in [27]. The entries for the “IC50” value in test [28] and in [29] were greater than 50 µg/mL and 1.11 µg/mL, respectively.

B5: PGT-126 monoclonal antibody (5141_B17) (antibody, V domains shown)
VH: QPQLQESGPGLVEASETLSLTCTVSGDSTAACDYFWGWVRQPPGKGLEWIGGLSHCAGYYNTGWTYHNPSLKSRLTISLDTPKNQVFLKLNSVTAADTAIYYCARFDGEVLVYHDWPKPAWVDLWGRGTLVTVSS
VL: QSALTQPPSASGSPGQSISISCTGTSNRFVSWYQQHPGKAPKLVIYGVNKRPSGVPDRFSGSKSGNTASLTVSGLQTDDEAVYYCSSLVGNWDVIFGGGTKLTVL
B5: the “neutralization IC50” value in test [1] was 0.006 µg/mL; in test [2], 3.14 µg/mL; in test [3], 0.111 µg/mL; in test [4] it was greater than 50 µg/mL; in test [5], 0.033 µg/mL; in test [6], 2.12 µg/mL. The “neutralization IC50” value in test [7] was greater than 50 µg/mL; in test [8], greater than 50 µg/mL; in [9] it was 0.011 µg/mL; in test [10] it was 0.17 µg/mL; in test [11] it was 0.014 µg/mL; in [12] it was greater than 50 µg/mL. Moreover, the “neutralization IC50” value in test [13] is greater than 50 µg/mL; in [14], 25.3 µg/mL; in test [15], 0.298 µg/mL.

B6: PGT-127 monoclonal antibody (5145_B14) (antibody, V domains shown)
VH: QPQLQESGPGLVEASETLSLTCTVSGDSTGRCNYFWGWVRQPPGKGLEWIGSLSHCRSYYNTDWTYHNPSLKSRLTISLDTPKNQVFLRLTSVTAADTATYYCARFGGEVLVYRDWPKPAWVDLWGRGTLVVTVS
VL: QSALTQPPSASGSPGQSITISCTGTSNNFVSWYQQYPGKAPKLVIYEVNKRPSGVPDRFSGSKSGSTASLTVSGLQADDEGVYYCSSLVGNWDVIFGGGTKLTVL
For B6, the “neutralization IC50” value in test [1] is 0.017 µg/mL; in [2] it was greater than 50 µg/mL; in [3] it was 1.07 µg/mL; in test [4], greater than 50 µg/mL; in test [5] it was 0.532 µg/mL; in test [6], greater than 50 µg/mL. The “neutralization IC50” value was greater than 50 µg/mL in [7]; greater than 50 µg/mL in test [8]; 0.057 µg/mL in [9]; 3.4 µg/mL in test [10]; 0.319 µg/mL in [11]; greater than 50 µg/mL in [12]. Moreover, the figures for the “neutralization IC50” value in test [13], in test [14] and in test [15] were greater than 50 µg/mL, greater than 50 µg/mL and 0.57 µg/mL, respectively.

B7: PGT-125 monoclonal antibody (5123_A06) (antibody, V domains shown)
VH: QSQLQESGPRLVEASETLSLTCNVSGESTGACTYFWGWVRQAPGKGLEWIGSLSHCQSFWGSGWTFHNPSLKSRLTISLDTPKNQVFLKLTSLTAADTATYYCARFDGEVLVYNHWPKPAWVDLWGRGIPVTVSS
VL: QSALTQPPSASGSPGQSITISCNGTATNFVSWYQQFPDKAPKLIIFGVDKRPPGVPDRFSGSRSGTTASLTVSRLQTDDEAVYYCGSLVGNWDVIFGGGTTLTVL
On to B7, for which the “neutralization IC50” value is 0.13 µg/mL in test [1]; greater than 50 µg/mL in test [2]; greater than 50 µg/mL in test [3]; greater than 50 µg/mL in test [4]; 1.82 µg/mL in [5]; greater than 50 µg/mL in [6]. Further, the “neutralization IC50” value was greater than 50 µg/mL in test [7]; greater than 50 µg/mL in [8]; 0.008 µg/mL in test [9]; 2.36 µg/mL in test [10]; 0.015 µg/mL in test [11]; greater than 50 µg/mL in test [12]. Further, the entries for the “neutralization IC50” value in [13], in [14] and in test [15] were greater than 50 µg/mL, greater than 50 µg/mL and 2.09 µg/mL, respectively.
